Results of unrelated studies side by side (data: NIAID ChemDB).

All rows: growth or infection tests; organism: Mycobacterium tuberculosis

A number after MIC or MFC names an inhibition level or a share of isolates. Percent inhibition refers to the dose given; in toxicity tests it is the harm to the cells. a–b is a range or a potency band. An empty or dashed field is not shown. Rows are shuffled and stem from different studies. MIC bound: limit read from a one-dose screen.

smiles | strain | cells | method | endpoint | dose | value
O=C(Nc1ccc(Br)cc1)C(=O)Nc1ccc(Br)cc1 |  |  |  | MIC |  | 4.1 µM
COc1ccc(-n2cc([N+](=O)[O-])nc2C)cc1 | H37Rv |  |  | inhibition | 6.25 µg/mL | 0%
CC(=O)Nn1c(C)nc2scc(-c3ccco3)c2c1=O | CNCTC MY331/88 |  |  | MIC |  | 78 µM
COC(=O)N[C@@H]1[C@H](C)O[C@@H](OC2C/C=C(\C)[C@H]3C=C[C@H]4[C@H](OC5C[C@@H](OC6C[C@@H](O)[C@@H](OC7C[C@@H](O)[C@@H](OC)[C@H](C)O7)[C@H](C)O6)[C@@H](O)[C@H](C)O5)[C@H](C)C[C@@H](C)[C@@H]4[C@@]3(C)/C(O)=C3/C(=O)OC4(C[C@H](C)C(CO)=C[C@H]4/C=C\2C)C3=O)C[C@@]1(C)[N+](=O)[O-] | H37Ra |  | MTT | MIC90 |  | 7.8 µM
CCCCCCCCS(=O)(=O)CC(N)=O | TBL54 EP066 |  |  | MIC |  | ≤6.25 µg/mL
COC(=O)C1(OC)C(=O)NC2=C1C(=O)c1ccccc1C2=O | H37Rv |  | resazurin | inhibition | 6.25 µg/mL | 3%
O=[N+]([O-])c1ccc(-n2cnc([N+](=O)[O-])n2)cc1 | H37Rv |  |  | MIC |  | >6.25 µg/mL
N#CCSc1ccnc(C#N)c1 | 331/81 |  |  | MIC |  | 500 µM
Cc1nc2scc(-c3ccco3)c2c(=O)n1/N=C/c1ccc(F)cc1 | CNCTC MY331/88 |  |  | MIC |  | 9 µM
CCN(CC)c1cc2oc3cc(N)cc(=N)c-3nc2cc1C | RMP-R |  |  | MIC |  | 0.4 µg/mL
CC(C)c1ccc(NC(=O)CCC(=O)Nc2ccc(C(C)C)cc2)cc1 |  |  |  | MIC |  | >1000 µM
COc1ccc2c(c1OC)C(=O)O[C@@H]2[C@H]1c2c(cc3c(c2OC)OCO3)CCN1C | H37Rv |  | BACTEC | MIC |  | ≥128 µg/mL
CO[C@H]1/C=C/O[C@@]2(C)Oc3c(C)c(=O)c4c(O)c(c5[nH]c6ccccc6nc5c4c3C2=O)NC(=O)/C(C)=C\C=C\[C@H](C)[C@H](O)[C@@H](C)[C@@H](O)[C@@H](C)[C@H](OC(C)=O)[C@@H]1C | M. bovis Ravenel |  |  | MIC |  | 0.03 µg/mL
COC(=O)C1c2ccccc2CC(=O)N1NC(C)=O | H37Rv |  | BACTEC | inhibition | 12.5 µg/mL | 0%
COc1cc2c(cc1OC)C(CC(C)=O)N(C)c1c-2ccc2cc3c(cc12)OCO3 | H37Rv (ATCC 27294) |  | broth dilution / turbidity | MIC |  | 12.5 µg/mL
C[n+]1cn(-c2ccc([N+](=O)[O-])cn2)c2ccccc21 | H37Rv |  | resazurin | inhibition | 6.25 µg/mL | -17%
O=C(N/N=C/CCCCCCCc1c([N+](=O)[O-])ccc(O)c1C(=O)O)c1ccncc1 | H37Rv |  |  | MIC |  | 0.5–10 µg/mL
CCCCCCSc1cc(C(N)=S)cc(Cl)n1 | H37Rv |  |  | MIC |  | 60 µM
Cc1nc([N+](=O)[O-])cn1-c1ccc(Cl)cc1 | H37Rv | VERO |  | MIC |  | 0.39 µg/mL
O=c1c2ccccc2nc2n1CCc1c-2[nH]c2ccccc12 | H37Ra ATCC 25177 |  | broth dilution / turbidity | MIC |  | >50 µg/mL
O=C1C(=O)N(CCOCCN2C(=O)C(=O)c3cc(Cl)ccc32)c2ccc(Cl)cc21 | H37Rv |  | resazurin | MIC |  | >32 µg/mL
O=C(O)c1cc(=O)c2cccc(O)c2[nH]1 | H37Rv |  | BACTEC | MIC |  | ≥12.5 µg/mL
O=C1c2ccccc2-n2c1nc1ncccc1c2=O | MDR 10038 |  |  | MIC |  | 1 µg/mL
N#CCCSc1ccnc(C(N)=S)c1 | 331/81 |  |  | MIC |  | 250 µM
Cc1cccc(C(N)=Nc2nc(-c3ccccn3)cc3ccccc23)c1 | H37Rv |  |  | MIC |  | 0.25 µg/mL
NC(=S)c1ccnc(SCC(O)CO)c1 | 331/81 |  |  | MIC |  | 250 µM
CC1=NN(C(=O)c2cc(Cl)cc([N+](=O)[O-])c2)C(=O)C1N=Nc1ccccc1C(=O)O | H37Rv |  | BACTEC | MIC |  | ≥12.5 µg/mL
CC1CN(c2cc3c(cc2F)C(=O)c2nc4ccccc4c(=O)n2-3)CCN1 | H37Rv |  |  | MIC |  | >5 µg/mL
N#CCCSc1cc(C(N)=S)ccn1 | 331/81 |  |  | MIC |  | 31 µM
CC(C)c1cc2c(c(O)c1O)[C@@]13C[C@@H](O)CC(C)(C)[C@@H]1C[C@@H]2OC3=O | H37Rv (ATCC 27294) |  |  | MIC |  | >650 µM
Cc1nc2scc(-c3ccco3)c2c(=O)n1NC(=O)c1ccc(Cl)cc1 | CNCTC MY331/88 |  |  | MIC |  | 9 µM
COc1c2c(c(OC)c3c(=O)cc(CC(C(=O)Nc4cc(C)ccc4C)N(N)C(=O)C[n+]4ccccc4)oc13)OCO2.[Cl-] | H37Rv |  | BACTEC | MIC bound |  | >12.5 µg/mL
COc1ccn2nc(C)c(C(=O)NCc3ccc(-c4ccc(OC(F)(F)F)cc4)c(OC)c3)c2c1 | H37Rv |  | fluorescence | MIC |  | 0.007 µg/mL
Cc1nc2scc(-c3ccco3)c2c(=O)n1N | CNCTC MY331/88 |  |  | MIC |  | 500 µM
CSc1cc(C(N)=O)cc(Br)n1 | H37Rv |  |  | MIC |  | >1000 µM
NC1=NS(=O)(=O)N=C(N)C1=Cc1ccc([N+](=O)[O-])o1 | H37Rv |  | BACTEC | MIC |  | ≥12.5 µg/mL
COc1c(O)ccc2c1cnc1c3cc4c(cc3ccc21)OCO4 | H37Rv (ATCC 27294) |  | broth dilution / turbidity | MIC |  | 1.6 µg/mL
CO/N=C1\C(=O)N(CCOCCN2C(=O)/C(=N/OC)c3ccccc32)c2ccccc21 | H37Rv |  | resazurin | MIC |  | >32 µg/mL
C[C@H](CC[C@H]1OC1(C)C)[C@H]1CC[C@@]2(C)[C@@H]3CC[C@H]4C(C)(C)[C@H](O)CC[C@@]45C[C@@]35CC[C@]12C |  |  |  | MIC |  | 8 µg/mL
CCCCc1nc(Cl)c(C2C(C(=O)Nc3ccccc3OC)=C(C)NC(C)=C2C(=O)Nc2ccccc2OC)[nH]1 | H37Rv |  | resazurin | inhibition | 6.25 µg/mL | 52%
CCCCSc1cc(C(N)=S)cc(Br)n1 | H37Rv |  |  | MIC |  | 125 µM
O=C(O)c1c(Cl)c(Cl)c(Cl)c(Cl)c1-c1c2ccc(=O)c(O)c-2oc2c(O)c(O)ccc12 | H37Rv |  | BACTEC | inhibition | 12.5 µg/mL | 0%
COc1ccn2nc(C)c(C(=O)NCc3ccc(-c4ccc(OC(F)(F)F)cc4)cc3F)c2c1 | H37Rv |  | fluorescence | MIC |  | 0.007 µg/mL
Cc1nc2scc(-c3ccco3)c2c(=O)n1/N=C/c1ccc(F)cc1F | CNCTC MY331/88 |  |  | MIC |  | 5 µM
COC(=O)c1nn2c(=O)n(C(C)=O)c3ccccc3c2c1C(=O)OC | H37Rv |  | BACTEC | MIC bound |  | >12.5 µg/mL
C[C@H](CC[C@H]1OC1(C)C)[C@H]1CC[C@@]2(C)[C@@H]3CC[C@H]4C(C)(C)C(=O)CC[C@@]45C[C@@]35CC[C@]12C |  |  |  | MIC |  | 6 µg/mL
O=C(Nc1ccc2ccc3cccnc3c2n1)c1ccccc1 | H37Rv |  |  | MIC |  | 0.25–1 µg/mL
NNC(=O)c1ccncc1 | Mutation katG315 |  |  | MIC |  | >3 µg/mL
CCOC(=O)c1ccc2c(c1)C(=O)c1nc3ccccc3c(=O)n1-2 | MDR 10038 |  |  | MIC |  | <0.4 µg/mL
Cc1nc2scc(-c3ccco3)c2c(=O)n1NC(=O)c1ccc([N+](=O)[O-])cc1 | CNCTC MY331/88 |  |  | MIC |  | 16 µM
COC(=O)C1C(OC(C)=O)C(C)C(O)C(C)(O)/C=C(\C)C2=C3C(=C(C)C(=O)c4c(O)c(c(C)c(OC(C)=O)c43)NC(=O)/C(C)=C/C=C\[C@](C)(O)C(O)[C@@H](C)C1O)OCO2 | PZA-R |  |  | MIC |  | 0.8 µg/mL
CCCCCCSc1cc(C(N)=S)cc(SCCCCC)n1 | H37Rv |  |  | MIC |  | 30 µM
Cc1ccc(N2CCN(CCCC3(c4ccccc4)OCCO3)CC2C)cc1Cl.Cl | H37Rv |  | BACTEC | inhibition | 12.5 µg/mL | 0%
CCCCc1nc(Cl)c(C2C(C(=O)Nc3ccccc3Cl)=C(C)NC(C)=C2C(=O)Nc2ccccc2Cl)[nH]1 | H37Rv |  | resazurin | inhibition | 6.25 µg/mL | 88%
Cc1ccc2nc3n(c(=O)c2c1)-c1ccccc1C3=O | MDR 10038 |  |  | MIC |  | 1 µg/mL
CCCCc1ccc(NC(=O)CCC(=O)Nc2ccc(CCCC)cc2)cc1 |  |  |  | MIC |  | 500 µM
Cc1cccc2nc3n(c(=O)c12)-c1ccccc1C3=O | MDR 10038 |  |  | MIC |  | 2 µg/mL
CCCCc1nc(Cl)c(C2C(C(=O)Nc3ccccc3F)=C(C)NC(C)=C2C(=O)Nc2ccccc2F)[nH]1 | H37Rv |  | resazurin | inhibition | 6.25 µg/mL | 95%
CO[C@H]1/C=C/O[C@@]2(C)Oc3c(C)c(O)c4c(O)c(cc(O)c4c3C2=O)NC(=O)/C(C)=C\C=C\[C@H](C)[C@H](O)[C@@H](C)[C@@H](O)[C@@H](C)[C@H](OC(C)=O)[C@@H]1C | M. bovis Ravenel |  |  | MIC |  | 0.03 µg/mL
C[C@H]1CN[C@@H]2[C@@H](C)[C@H]3[C@@H](C[C@H]4[C@@H]5CC[C@H]6C[C@@H](N)CC[C@]6(C)[C@H]5CC[C@]34C)O[C@@]2(O)C1 | H37Rv |  | BACTEC | MIC bound |  | >12.8 µg/mL
CCOC(=O)CSc1ccnc(C#N)c1 | 331/81 |  |  | MIC |  | 500 µM
COc1ccn2nc(C)c(C(=O)NCc3ccc(-c4ccc(OC(F)(F)F)cc4)c(C)c3)c2c1 | H37Rv |  | fluorescence | MIC |  | 0.013 µg/mL
C=C1C(=O)O[C@@H]2/C=C(\C)CC/C=C(\C)CC[C@@H]12 |  |  |  | MIC |  | 32 µg/mL
CNC(=O)Nc1ccc(C)c(Cl)c1 | H37Rv |  | BACTEC | inhibition | 12.5 µg/mL | 16%
COc1cc(/C=C/CO)cc2cc(-c3ccc4c(c3)OCO4)oc12 | H37Rv (ATCC 27294) |  | broth dilution / turbidity | MIC |  | >50 µg/mL
O=C1c2cc(F)cc(F)c2-n2c1nc1ccccc1c2=O | H37Rv |  |  | MIC |  | 1 µg/mL
CCCCCCCCSc1cc(C(N)=S)cc(Br)n1 | H37Rv |  |  | MIC |  | 125 µM
Cc1cnc(N)c(C(=O)OCc2ccccc2)n1 | H37Rv |  | BACTEC | MIC |  | ≥12.5 µg/mL
CC1COc2c(N3CCN(C)CC3)c(F)cc3c(=O)c(C(=O)O)cn1c23 | 25 strains |  |  | MIC90 |  | 0.8 µg/mL
CCOC(=O)CSc1ccnc(C(N)=S)c1 | 331/81 |  |  | MIC |  | 1000 µM
NC(=Nc1nc(-c2ccccn2)cc2ccccc12)c1ccccc1 | H37Rv |  |  | MIC |  | 0.25 µg/mL
NC(=O)N=Nc1c(O)n(CCOCCn2c(O)c(N=NC(N)=O)c3ccccc32)c2ccccc12 | H37Rv |  | resazurin | MIC |  | 27.4 µg/mL
O=C1c2cc(F)ccc2-n2c1nc1ccc(Cl)cc1c2=O | H37Rv |  |  | MIC |  | <1 µg/mL
CCN(CC)CCCC(C)Nc1cc(/C=C/c2ccc(Cl)cc2)nc2ccc(N(C)C)cc12 | H37Rv |  | BACTEC | MIC |  | 3.13 µg/mL
CO[C@H]1/C=C/O[C@@]2(C)Oc3c(C)c(O)c4c(O)c(c(N(NC5CCCCC5)NC5CCCCC5)c(O)c4c3C2=O)NC(=O)/C(C)=C\C=C\[C@H](C)[C@H](O)[C@@H](C)[C@@H](O)[C@@H](C)[C@H](OC(C)=O)[C@@H]1C | M. bovis Ravenel |  |  | MIC |  | 0.01 µg/mL
O=C(NNS(=O)(=O)c1ccccc1)c1ccco1 | H37Rv |  | BACTEC | MIC |  | ≥12.5 µg/mL
CCCCCCCSc1cc(C(N)=S)cc(SCCCCCC)n1 | H37Rv |  |  | MIC |  | 60 µM
O=CNc1ccc(S(=O)(=O)c2ccc(NC=O)cc2)cc1 | H37Rv |  | BACTEC | inhibition | 12.8 µg/mL | 80%
COC(=O)/C=C/c1cc(OC)c2oc(-c3ccc4c(c3)OCO4)cc2c1 | H37Rv (ATCC 27294) |  | broth dilution / turbidity | MIC |  | >50 µg/mL
Cc1c(C(=O)/C=C/c2ccccc2[N+](=O)[O-])[n+](=O)c2ccccc2n1[O-] | KM-R |  |  | MIC |  | 1.6 µg/mL
CCO/N=C1\C(=O)N(CCOCCN2C(=O)/C(=N/OCC)c3ccccc32)c2ccccc21 | H37Rv |  | resazurin | MIC |  | >32 µg/mL

9 of the rows above, restated:

smiles | strain | cells | method | endpoint | dose | value
CC1CN(c2cc3c(cc2F)C(=O)c2nc4ccccc4c(=O)n2-3)CCN1 | H37Rv |  |  | MIC |  | >5 µg/mL
CCCCSc1cc(C(N)=S)cc(Br)n1 | H37Rv |  |  | MIC |  | 125 µM
COC(=O)/C=C/c1cc(OC)c2oc(-c3ccc4c(c3)OCO4)cc2c1 | H37Rv (ATCC 27294) |  | broth dilution / turbidity | MIC |  | >50 µg/mL
COc1ccn2nc(C)c(C(=O)NCc3ccc(-c4ccc(OC(F)(F)F)cc4)c(C)c3)c2c1 | H37Rv |  | fluorescence | MIC |  | 0.013 µg/mL
Cc1ccc(N2CCN(CCCC3(c4ccccc4)OCCO3)CC2C)cc1Cl.Cl | H37Rv |  | BACTEC | inhibition | 12.5 µg/mL | 0%
COc1cc2c(cc1OC)C(CC(C)=O)N(C)c1c-2ccc2cc3c(cc12)OCO3 | H37Rv (ATCC 27294) |  | broth dilution / turbidity | MIC |  | 12.5 µg/mL
NC(=Nc1nc(-c2ccccn2)cc2ccccc12)c1ccccc1 | H37Rv |  |  | MIC |  | 0.25 µg/mL
C[C@H]1CN[C@@H]2[C@@H](C)[C@H]3[C@@H](C[C@H]4[C@@H]5CC[C@H]6C[C@@H](N)CC[C@]6(C)[C@H]5CC[C@]34C)O[C@@]2(O)C1 | H37Rv |  | BACTEC | MIC bound |  | >12.8 µg/mL
O=C1c2cc(F)cc(F)c2-n2c1nc1ccccc1c2=O | H37Rv |  |  | MIC |  | 1 µg/mL